A mixed list of measured activities; the numbers were collected in NIAID ChemDB.

All rows: tests in culture; species: HIV-1; read-out: EC50

An empty or dashed field is not shown. ECn: concentration that inhibits the pathogen or its effect by n%. Neighbouring rows are from separate reports.

structure,changes,read by,strain,cells,result
COc1c(-c2cc(C)on2)c(O)c(S(=O)(=O)Oc2ccc([N+](=O)[O-])cc2)c2occc12,-,cytopathic effect / MTS,RF,CEM-SS,0.000052 µM
Cc1cn([C@H]2C[C@H](N=[N+]=[N-])[C@@H](COC(=O)OC[C@@H]3O[C@H]3CO)O2)c(=O)[nH]c1=O,-,ELISA,IIIB,MT-4,0.008 µM
Cc1cn([C@@H]2O[C@H](CO)[C@](O)(C(F)(F)F)[C@H]2O)c(=O)[nH]c1=O,-,-,-,MT-4,>100 µM
Clc1cccc(Nc2nnc(Cc3c(Cl)cccc3Cl)o2)c1,-,MTT,IIIB,MT-2,4.3 µM
CC(C)C1=C2[C@H]3CC[C@@H]4[C@@]5(C)CC[C@H](OC(=O)[C@@H]6C[C@H](C(=O)O)C6(C)C)C(C)(C)[C@@H]5CC[C@@]4(C)[C@]3(C)CC[C@@]2([C@@H](O)CNCc2ccc(Cl)cc2)CC1=O,-,p24 / ELISA,92HT599,MT-2,<1 µM
Nc1ccn([C@H]2CC[C@@H](CO)O2)c(=O)n1,-,cytopathic effect,-,MT-4,0.5 µM
NC(=NCC1CCCO1)c1ccc2nc(Cc3nc4ccc(C(N)=NCC5CCCO5)cc4[nH]3)[nH]c2c1,-,cytopathic effect / propidium iodide,IIIB,MT-4,4.5 µM
CCOCn1c(CC2CCCc3ccccc32)c(CC)c(=O)[nH]c1=O,-,cytopathic effect / MTT,IIIB,MT-4,4 µM
Cc1cc(C)cc(Oc2c(C(C)C)c(=O)[nH]c(=O)n2CCC2=CCCC2)c1,-,cytopathic effect / XTT,RF,CEM + CEM-SS,0.42 µM
Nc1nc2c(ncn2[C@@H]2O[C@H](CO)C(O)(C(F)(F)F)[C@H]2O)c(=O)[nH]1,-,-,-,MT-4,>100 µM
CC(C)C1=C2[C@H]3CC[C@@H]4[C@@]5(C)CC[C@H](OC(=O)[C@H]6C[C@@H](C(=O)O)C6(C)C)C(C)(C)[C@@H]5CC[C@@]4(C)[C@]3(C)CC[C@@]2(CCNC(=O)c2ccc(N3CCS(=O)(=O)CC3)cc2)CC1=O,-,p24 / ELISA,92HT599,MT-2,<1 µM
Cc1cn([C@H]2C[C@H](N=[N+]=[N-])[C@@H](CO)O2)c(=O)[nH]c1=O,A17 (K103N Y181C),MTT,-,MT-4,0.01 µM
O=C(c1ccc(F)cc1)c1ccc2[nH]c(=O)oc2c1,-,syncytia,IIIB,CEM,>40 µg/mL
c1cc2nc(Cc3nc4ccc(C5=N[C@@H]6CCCC[C@H]6N5)cc4[nH]3)[nH]c2cc1C1=N[C@@H]2CCCC[C@H]2N1,-,cytopathic effect / propidium iodide,IIIB,MT-4,3.9 µM
CCC(=O)c1ccc2c(c1)sc(=O)n2CCN1CCCCC1,-,syncytia,IIIB,CEM,>40 µg/mL
COc1cc2c(cc1Cc1cccc(Cl)c1F)c(=O)c(C(=O)O)cn2[C@H](CO)C(C)C,+G insertion (GGGGAGT),luciferase,-,HOS,<0.001 µM
CCn1cc(C(=O)O)c(=O)c2cc(F)c(N3CCN(CC(=O)N4C(=O)c5cccnc5N(C5CC5)c5nccc(C)c54)CC3)cc21,-,cytopathic effect / XTT,-,CEM,1.29 µM
COc1c(-c2cc(C)n(-c3ccccc3)n2)c(O)c(S(=O)(=O)Oc2ccc(F)cc2)c2occc12,-,MTT,IIIB,MT-4,0.000012 µM
C[C@@H]1CCO[C@H]2Cn3cc(C(=O)NCc4ccc(F)cc4F)c(=O)c(O)c3C(=O)N12,AGT (GGGAGT),luciferase,-,HOS,<0.001 µM
Cc1ccnc2c1N(C(=O)CN1CCN(c3cc4c(cc3F)c(=O)c(C(=O)O)cn4C3CC3)CC1)C(=O)c1cccnc1N2C1CC1,-,cytopathic effect / XTT,-,CEM,0.227 µM
CCOCn1c(Cc2ccccc2)c(C(C)C)c(=O)[nH]c1=O,-,cytopathic effect / MTT,IIIB,MT-4,0.02 µM
COc1c(C(=O)/C=C(/C)Nc2ccc([N+](=O)[O-])cc2)c(O)c(S(=O)(=O)OC2CCCCC2)c2occc12,-,MTT,IIIB,MT-4,0.000046 µM
CCOCn1c(Cc2ccccc2)c(C(C)C)c(=O)[nH]c1=O,-,cytopathic effect / MTT,IIIB,MT-4,0.02 µM
CC(C)C1=C2[C@H]3CC[C@@H]4[C@@]5(C)CC[C@H](OC(=O)[C@H]6C[C@@H](C(=O)O)C6(C)C)C(C)(C)[C@@H]5CC[C@@]4(C)[C@]3(C)CC[C@@]2(CC(=O)NCC(C)(C)NC(=O)c2ccc3ccccc3n2)CC1=O,-,p24 / ELISA,92HT599,MT-2,<1 µM
CS(=O)c1ccc(-c2nc(-c3ccc(F)cc3)c(-c3ccncc3)[nH]2)cc1,-,p24,AZT-resistant A012 Clinical isolate,PBMC,1 µM
COc1c(C(=O)/C=C(/C)Nc2ccc([N+](=O)[O-])cc2)c(O)c(S(=O)(=O)Oc2ccc(F)cc2)c2occc12,-,cytopathic effect / MTS,RF,CEM-SS,0.000062 µM
FC(F)(Sc1ncccn1)c1nc2ccccc2o1,RT-T139I,-,CALO,-,3.2 µM
Cc1ccc(Nc2nc(N)nc(Cc3c(Cl)cccc3Cl)c2C)cc1,-,cytopathic effect / MTT,-,MT-4,0.004 µM
COc1c(-c2cc(C)[nH]n2)c(O)c(S(=O)(=O)Oc2ccc(F)cc2)c2occc12,-,MTT,IIIB,MT-4,0.000017 µM
Clc1ccc(Nc2nnc(Nc3c(Cl)cccc3Cl)o2)cc1Cl,-,MTT,IIIB,MT-2,22 µM
COC(=O)c1ccc(Nc2ccc(OC)c3ccccc23)cc1,-,MTT,-,MT-4,>1.07 µM
CCOC(=O)c1c(C(C)C)c(C#N)c(=N)n2ccccc12,-,cytopathic effect / XTT,RF,CEM + CEM-SS,14 µg/mL
COCc1ccc(Nc2nnc(Cc3c(Cl)cccc3Cl)o2)cc1Cl,-,MTT,IIIB,MT-2,1.3 µM
COc1c(-c2cc(C)n(-c3ccccc3)n2)c(O)c(S(=O)(=O)Oc2ccc([N+](=O)[O-])cc2)c2occc12,-,MTT,IIIB,MT-4,0.000014 µM
N#Cc1ccc(Nc2ncc(Cc3c(Cl)cccc3Cl)s2)cc1,-,MTT,IIIB,MT-2,0.43 µM
COc1cccc2c1N(C(=O)OC(C)C)C(CSC)C(=S)N2,-,cytopathic effect / XTT,IIIB,MT-4,0.009 µM
C=C(c1ccccc1)c1c(CC)c(=O)[nH]c(=O)n1COC/C=C/c1ccccc1,-,cytopathic effect / MTT,IIIB,MT-4,0.32 µM
Nc1c(C(=O)NCc2ccc(F)cc2F)c(=O)n(O)c2ncc(CCS(=O)(=O)c3ccccc3)cc12,AGC (GGGAGC),luciferase,-,HOS,<0.003 µM
N#Cc1ccc(Nc2nnc(Nc3c(Cl)cccc3Cl)o2)cc1,-,MTT,IIIB,MT-2,9.8 µM
COc1ccc(C(=O)NC(C)(C)CNC(=O)C[C@@]23CC[C@]4(C)[C@H](CC[C@@H]5[C@@]6(C)CC[C@H](OC(=O)[C@H]7C[C@@H](C(=O)O)C7(C)C)C(C)(C)[C@@H]6CC[C@]54C)C2=C(C(C)C)C(=O)C3)cc1,-,p24 / ELISA,92HT599,MT-2,<1 µM
O=C(c1cccc([N+](=O)[O-])c1)c1ccc2c(c1)sc(=O)n2Cc1ccccc1,-,syncytia,IIIB,CEM,>1.6 µg/mL
CCCCCCCCCC[N+](C)(C)CCCNCc1c(O)cc2c(c1O)-c1cc(ccc1O)[C@H]1NC(=O)[C@@H]3NC(=O)C4NC(=O)[C@@H](Cc5ccc(c(Cl)c5)Oc5cc3cc(c5O)Oc3ccc(cc3Cl)[C@@H](O)[C@H](NC1=O)C(=O)N[C@@H]2C(=O)O)NC(=O)[C@H](N)c1ccc(O)c(c1)Oc1cc(O)cc4c1,RT-L100I,syncytia,-,CEM,5.3 µM
COc1c(-c2cc(C)on2)c(O)c(S(=O)(=O)OC2CCCC2)c2occc12,-,MTT,IIIB,MT-4,0.000031 µM
C=CCN=C(N)c1ccc2nc(Cc3nc4ccc(C(N)=NCC=C)cc4[nH]3)[nH]c2c1,-,cytopathic effect / propidium iodide,IIIB,MT-4,9.6 µM
Cc1cc(C)cc(C(=O)c2c(C(C)C)c(=O)[nH]c(=O)n2CC2=CCCC2)c1,-,cytopathic effect / XTT,-,CEM + CEM-SS,0.02 µM
Cc1ccc(C(=O)NC(C)(C)CNC[C@H](O)[C@@]23CC[C@]4(C)[C@H](CC[C@@H]5[C@@]6(C)CC[C@H](OC(=O)[C@H]7C[C@@H](C(=O)O)C7(C)C)C(C)(C)[C@@H]6CC[C@]54C)C2=C(C(C)C)C(=O)C3)cn1,-,p24 / ELISA,92HT599,MT-2,<1 µM
C=C(c1cc(C)cc(C)c1)c1c(CC)c(=O)[nH]c(=O)n1COCC=C(C)C,-,cytopathic effect / MTT,IIIB,MT-4,0.15 µM
COc1c(C(=O)/C=C(/C)Nc2ccccc2)c(O)c(S(=O)(=O)Oc2ccc([N+](=O)[O-])cc2)c2occc12,-,MTT,IIIB,MT-4,0.000042 µM
COc1cc2c(c(O)c1OC)-c1c(cc3c(c1O)OCO3)C[C@H](C)[C@H](C)C2,-,-,IIIB,MT-4,5.67 µg/mL
CC1(C)CN=C(c2ccc3nc(Cc4nc5ccc(C6=NCC(C)(C)CN6)cc5[nH]4)[nH]c3c2)NC1,-,cytopathic effect / propidium iodide,IIIB,MT-4,9.6 µM
O=c1oc2cc(Cc3ccccc3)ccc2n1CCN1CCOCC1,-,syncytia,IIIB,CEM,>8 µg/mL
CC(C)C1=C2[C@H]3CC[C@@H]4[C@@]5(C)CC[C@H](OC(=O)[C@H]6C[C@@H](C(=O)O)C6(C)C)C(C)(C)[C@@H]5CC[C@@]4(C)[C@]3(C)CC[C@@]2(CCNC(=O)c2ccc(Cl)cc2OCCN2CCOCC2)CC1=O,-,p24 / ELISA,92HT599,MT-2,<1 µM
CCOC(=O)[C@H](C)NC(O)(Oc1ccccc1)Oc1nc(N(C)C)nc(C(C)c2c(F)cccc2F)c1C,K103N + Y181C,MTT,-,MT-4,>40 µM
CCc1ccc(Nc2ncc(Cc3c(F)cccc3F)o2)cc1,-,MTT,IIIB,MT-2,1.4 µM
COc1c(O)cc2ccc(=O)oc2c1-c1c(O)ccc2ccc(=O)oc12,MDR (74V 41L 106A 215Y),MTT,-,MT-4,12 µM
C=C(c1cc(C)cc(C)c1)c1c(CC)c(=O)[nH]c(=O)n1COCC,-,cytopathic effect / MTT,IIIB,MT-4,0.035 µM
Nc1ncnc2c1ncn2[C@H]1CC[C@@H](CO)O1,-,p24,MN,H9,1.19 µM
C=C(c1cc(C)cc(C)c1)c1c(CC)c(=O)[nH]c(=O)n1COC/C(C)=C/c1ccccc1,RT-Y181C,cytopathic effect / MTT,IIIB,MT-4,7 µM
CCc1ccc(Nc2ncc(Cc3c(Cl)cccc3Cl)o2)cc1,-,MTT,IIIB,MT-2,2.8 µM
C=C(c1cc(C)cc(C)c1)c1c(CC)c(=O)[nH]c(=O)n1COC/C=C/c1ccccc1,RT-Y181C,cytopathic effect / MTT,IIIB,MT-4,>100 µM
CN1N=C(N)c2cn([C@@H]3O[C@H](COP(=O)(O)O)[C@@H](O)[C@H]3O)c3ncnc1c23,-,RT activity,IIIB,H9,0.05 µM
CCC(=O)c1ccc(F)c([C@H]2C[C@H]2NC(=O)Nc2ccc(C#N)cn2)c1O,RT-Y181C,cytopathic effect / XTT,IIIB,MT-4,0.02 µM
Cc1c(N)nc(Nc2ccc(C#N)cc2)nc1Cc1c(Cl)cccc1Cl,-,cytopathic effect / MTT,-,MT-4,45.2 µM
O=C(c1cccc(Cl)c1)c1ccc2[nH]c(=O)oc2c1,-,syncytia,IIIB,CEM,>8 µg/mL
O=C(O)C(Cc1ccc(O)c(O)c1)OC(O)/C=C/C1=CC(O)C(O)C=C1,-,MTT,IIIB,MT-4,>55 µM
COc1cc2c(c(OC)c1OC)-c1c(cc3c(c1OC)OCO3)[C@H](OC(=O)c1ccccc1)[C@@](C)(O)[C@@H](C)C2,-,syncytia,IIIB,C8166,20.4 µg/mL
Cc1ccnc(SC(F)(F)c2nc3ccccc3o2)n1,RT-P236L,-,HEPT/236 (RT P236L),-,0.11 µM
Clc1ccc(Nc2nnc(Nc3c(Cl)cccc3Cl)o2)cc1,-,MTT,IIIB,MT-2,>100 µM
C[C@H]1CO[C@@H]2Cn3cc(C(=O)NCc4ccc(F)cc4F)c(=O)c(O)c3C(=O)N12,AGC (GGGAGC),luciferase,-,HOS,<0.003 µM
C=C(c1cc(C)cc(C)c1)c1c(CC)c(=O)[nH]c(=O)n1COC1Cc2ccccc2C1,-,cytopathic effect / MTT,IIIB,MT-4,0.3 µM

For reference, 5 entries again:

structure	changes	read by	strain	cells	result
COc1cc2c(c(OC)c1OC)-c1c(cc3c(c1OC)OCO3)[C@H](OC(=O)c1ccccc1)[C@@](C)(O)[C@@H](C)C2	-	syncytia	IIIB	C8166	20.4 µg/mL
CC1(C)CN=C(c2ccc3nc(Cc4nc5ccc(C6=NCC(C)(C)CN6)cc5[nH]4)[nH]c3c2)NC1	-	cytopathic effect / propidium iodide	IIIB	MT-4	9.6 µM
CCCCCCCCCC[N+](C)(C)CCCNCc1c(O)cc2c(c1O)-c1cc(ccc1O)[C@H]1NC(=O)[C@@H]3NC(=O)C4NC(=O)[C@@H](Cc5ccc(c(Cl)c5)Oc5cc3cc(c5O)Oc3ccc(cc3Cl)[C@@H](O)[C@H](NC1=O)C(=O)N[C@@H]2C(=O)O)NC(=O)[C@H](N)c1ccc(O)c(c1)Oc1cc(O)cc4c1	RT-L100I	syncytia	-	CEM	5.3 µM
N#Cc1ccc(Nc2nnc(Nc3c(Cl)cccc3Cl)o2)cc1	-	MTT	IIIB	MT-2	9.8 µM
CCC(=O)c1ccc(F)c([C@H]2C[C@H]2NC(=O)Nc2ccc(C#N)cn2)c1O	RT-Y181C	cytopathic effect / XTT	IIIB	MT-4	0.02 µM